Compound potency records, mixed from different reports. Data source: NIAID ChemDB in PubChem.

Shared fields: tests in culture; species: Candida albicans; measure: EC50

ECn is the concentration giving n% inhibition of infection, replication or growth. Conditions beyond the fields shown may differ between rows. An empty or dashed field is not shown.

SMILES	method	strain or isolate	result
C1CCC([C@H]2CN3C(=NC[C@H]3C3CCCCC3)N2CCC23CC4CC(CC(C4)C2)C3)CC1	-	ATCC 10231	9 µg/mL
COc1cc(C)c2c(=O)c3c(O)cc(O)cc3oc2c1	resazurin	SC5314	>250 µM
CCN1C2=NCC(C)(C)N2C[C@@H]1Cc1ccccc1	-	ATCC 10231	>250 µg/mL
COc1cc(O)c2c(c1)C1OC(=O)C[C@]1(C)OC2=O	resazurin	SC5314	>250 µM
O=Cc1cc(O)ccc1O	broth dilution / turbidity	ATCC 90028	1.13 µM
COc1cc(O)c(C(=O)O)c(-c2cc(O)c(O)cc2C)c1	resazurin	SC5314	>250 µM
CC(C)(C)C1CCC(CN2C3=NC[C@H](CC4CCCCC4)N3C[C@@H]2CC2CCCCC2)CC1	-	ATCC 10231	4.2 µg/mL
N[C@H]1CSC[C@H]1C(=O)O	-	-	32 µg/mL
O=C(O)c1ccccc1O	broth dilution / turbidity	ATCC 90028	0.26 µM
Clc1ccc(COC(Cn2ccnc2)c2ccc(Cl)cc2Cl)c(Cl)c1	agar diffusion / agar	75 strains	<10 µg/mL
Cc1ccc(C(C)C)c(O)c1	broth dilution / turbidity	PYCC 3436	0.19 µM
Clc1ccc(C(Cn2ccnc2)OCc2ccsc2Cl)c(Cl)c1	agar diffusion / agar	75 strains	<10 µg/mL
C1CCC(C[C@@H]2CN=C3N2C[C@H](C2CCCCC2)N3CCC23CC4CC(CC(C4)C2)C3)CC1	-	ATCC 10231	8.3 µg/mL
COc1cc(O)c2c(c1)C1=C[C@@H](O)[C@H](O)C[C@]1(C)OC2=O	resazurin	SC5314	>250 µM
CCN1C2=NC[C@H](Cc3ccccc3)N2C[C@@H]1C1CCCCC1	-	ATCC 10231	>64 µg/mL
CCC(C)n1ncn(-c2ccc(N3CCN(c4ccc(OC[C@H]5CO[C@](Cn6cncn6)(c6ccc(Cl)cc6Cl)O5)cc4)CC3)cc2)c1=O	agar diffusion / agar	75 strains	<10 µg/mL
Cc1cc2c(C)cc(O)cc2c(=O)o1	resazurin	SC5314	97.9 µM
C=C1CC(N)[C@H](c2nn[nH]n2)C1	-	-	128 µg/mL
O=C1Nc2ccccc2C(=O)C1CSc1n[nH]c(=S)s1	resazurin	ATCC 90028	>50 µg/mL
N[C@H]1COC[C@H]1C(=O)O	-	-	64 µg/mL
CSc1nc(Cl)cc(Sc2n[nH]c(=S)s2)n1	resazurin	ATCC 90028	>50 µg/mL
C=C1C[C@H](N)[C@H](C(=O)O)C1C	-	-	128 µg/mL
C1CCC([C@H]2CN=C3N2C[C@@H](C2CCCCC2)N3CCC23CC4CC(CC(C4)C2)C3)CC1	-	ATCC 10231	9.9 µg/mL
CC1=NN(c2ccc(Sc3n[nH]c(=S)s3)cc2)C(=O)C1	resazurin	ATCC 90028	19.1 µg/mL
N[C@H]1CCC[C@H]1S(=O)(=O)O	-	-	>256 µg/mL

The first 3 rows once more:

SMILES	method	strain or isolate	result
C1CCC([C@H]2CN3C(=NC[C@H]3C3CCCCC3)N2CCC23CC4CC(CC(C4)C2)C3)CC1	-	ATCC 10231	9 µg/mL
COc1cc(C)c2c(=O)c3c(O)cc(O)cc3oc2c1	resazurin	SC5314	>250 µM
CCN1C2=NCC(C)(C)N2C[C@@H]1Cc1ccccc1	-	ATCC 10231	>250 µg/mL